{"source": "PubChem BioAssay AID1259414 (Drosophila RNAi Screening Center, 2018)", "aim": "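Host factors increasing or decreasing Wolbachia levels in cultured fly cells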 (primary screen)", "cell system": "Drosophila JW18 cells infected with Wolbachia", "reagent": "long dsRNA against Drosophila genes, 0.25 µg dsRNA per well of a 384-well plate", "time to read-out": "5 days", "challenge": "cells persistently infected with Wolbachia before knock-down; no added drug", "measurement": "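Imaged fluorescence in situ signal for Wolbachia 23S rRNA per DAPI-counted host cell, given as a robust z-score within each plate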", "direction": "Wolbachia per cell robust z: higher = more Wolbachia per host cell than the plate typical", "active means": "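Active if absolute robust z reaches 1.5 in two or more of three replicates, leaving out multi- or no-target dsRNAs, genes unexpressed in JW18 and A1 wells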", "note": "The deposit covers about 24,000 reagents; this is an unselected part of those that have a named target and a result. Over the whole deposit, about 1,210 (5%) were called active. 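Inactive calls also include excluded dsRNAs with several or no targets, genes unexpressed in JW18, and well A1, regardless of score.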 Unmarked entries are inactive. Names joined by + are all predicted targets of the reagent."}
{"Gene": "CG34173 (GeneID 5740285)", "dsRNA": "DRSC38728", "Wolbachia per cell robust z, rep 1": -0.648, "Wolbachia per cell robust z, rep 2": -0.0424, "Wolbachia per cell robust z, rep 3": -0.827}
{"Gene": "eIF3i (GeneID 33710)", "dsRNA": "DRSC03464", "Wolbachia per cell robust z, rep 1": "1.43 (active)", "Wolbachia per cell robust z, rep 2": 2.88, "Wolbachia per cell robust z, rep 3": 5.16}
{"Gene": "Cyp4aa1 (GeneID 36752)", "dsRNA": "DRSC07368", "Wolbachia per cell robust z, rep 1": 0.541, "Wolbachia per cell robust z, rep 2": 0.169, "Wolbachia per cell robust z, rep 3": -0.553}
{"Gene": "Cyp4aa1 (GeneID 36752)", "dsRNA": "DRSC27648", "Wolbachia per cell robust z, rep 1": -0.596, "Wolbachia per cell robust z, rep 2": -1.32, "Wolbachia per cell robust z, rep 3": -0.852}
{"Gene": "Rpn6 (GeneID 36638)", "dsRNA": "DRSC07541", "Wolbachia per cell robust z, rep 1": -0.428, "Wolbachia per cell robust z, rep 2": 0.493, "Wolbachia per cell robust z, rep 3": -0.295}

Single entries from above:
Entry for eIF3i (GeneID 33710) [DRSC03464] in “Wolbachia per cell robust z, rep 2”: 2.88 (active)
Cyp4aa1 (GeneID 36752) [DRSC07368], Wolbachia per cell robust z, rep 3: -0.553

Further records:
{"Gene": "Nmt (GeneID 38909)", "dsRNA": "DRSC11236", "Wolbachia per cell robust z, rep 1": 0.133, "Wolbachia per cell robust z, rep 2": 0.791, "Wolbachia per cell robust z, rep 3": -0.152}
{"Gene": "CG42271 (GeneID 2768892)", "dsRNA": "DRSC19809", "Wolbachia per cell robust z, rep 1": 0.773, "Wolbachia per cell robust z, rep 2": -0.223, "Wolbachia per cell robust z, rep 3": 1.47}
{"Gene": "CG42271 (GeneID 2768892)", "dsRNA": "DRSC22894", "Wolbachia per cell robust z, rep 1": -2.63, "Wolbachia per cell robust z, rep 2": -0.906, "Wolbachia per cell robust z, rep 3": -0.987}
{"Gene": "CG42271 (GeneID 2768892)", "dsRNA": "DRSC27249", "Wolbachia per cell robust z, rep 1": -1.04, "Wolbachia per cell robust z, rep 2": 0.403, "Wolbachia per cell robust z, rep 3": 0.69}
{"Gene": "CG42271 (GeneID 2768892)", "dsRNA": "DRSC27338", "Wolbachia per cell robust z, rep 1": "-6.19 (active)", "Wolbachia per cell robust z, rep 2": -2.08, "Wolbachia per cell robust z, rep 3": -2.43}
{"Gene": "mRpS33 (GeneID 41991)", "dsRNA": "DRSC14239", "Wolbachia per cell robust z, rep 1": 0.663, "Wolbachia per cell robust z, rep 2": -0.66, "Wolbachia per cell robust z, rep 3": -0.593}
{"Gene": "CR40450 + CG32767", "dsRNA": "DRSC18387", "Wolbachia per cell robust z, rep 1": 0.981, "Wolbachia per cell robust z, rep 2": -0.26, "Wolbachia per cell robust z, rep 3": 0.487}
